Experimental data: patent publication US20090209606A1 (priority 2004, published 2009)
Read-outs that look alike come from different tables or passages of the source.

Tests used:
[1] = test system: Ape-1 base excision repair enzyme; assay: In vitro cell based Ape-1 assay (MTT cytotoxicity with or without methoxyamine); settings: 6 mM methoxyamine, 72 hrs
SU-DHL-1 cells [2] = assay: MTT cytotoxicity assay, cell viability after three days exposure; assay type: cell-based
SU-DHL-1 cells [3] = assay: Western blot / immunoblot of apoptotic proteins; assay type: cell-based; settings: SU-DHL-1, 20 hours, equitoxic concentrations
[4] = test system: alkylguanyl transferase (AGT) in SU-DHL-1 cells; settings: 50 μM O6-benzylguanine, 72 hrs
SU-DHL-1 cells [5] = assay: Quantitative PCR (Q-PCR) of transcripts in drug-treated cells; assay type: cell-based
PARP in SU-DHL-1 cells = assay: PARP cleavage after brief exposure and drug washout; assay type: cell-based; settings: 30 minutes exposure, further 8 hours, equitoxic concentrations
[6] = SU-DHL-1, equitoxic concentrations

Compound: NP(=O)(O)N(CCCl)CCCl
- change of IC50 with methoxyamine addition [1]: only changed slightly
- IC50 (SU-DHL-1 cells [2]; read-out: Ave IC50, SU-DHL-1, three days exposure): 21.3 µM
- IC90 (SU-DHL-1 cells [2]; read-out: Ave IC90, SU-DHL-1, three days exposure): 33 µM
- IC90 (SU-DHL-1 cells [2]; read-out: IC90 concentration, SU-DHL-1, concentration used for gene expression profiling): 50 µM
- PARP protein expression (SU-DHL-1 cells [3]): no changes
- effect of O6-benzylguanine on cytotoxic potency [4]: significantly sensitizes
- induction of p21 and NOXA mRNA (SU-DHL-1 cells [5]; SU-DHL-1, 8 hours, equitoxic concentrations): much lower extent
- Fen1 mRNA regulation (SU-DHL-1 cells [5]; [6]): upregulated this gene to the same level
- down-regulation of mRNA expression of PLK-1, Aurora Kinases A and B, cyclin B1 (SU-DHL-1 cells [5]; [6]): minor effect
- up-regulation of Exo1 expression (SU-DHL-1 cells [5]; [6]): 1.5 fold
- PARP cleavage (PARP in SU-DHL-1 cells): No PARP cleavage
